Measured values: PMC4050313, “Panaxadiol and Panaxatriol Derivatives as Anti-Hepatitis B Virus Inhibitors” (Natural Products and Bioprospecting, 2014)

Tests used:
Assay type in all cases: cell-based, Hepatitis B virus
Settings in all cases: SI (selectivity index) = CC50/IC50
HBV DNA replication = assay: Inhibition of HBV DNA replication, real-time PCR, HepG 2.2.15 cells
Protocol: (§1) Based on our previous description, inhibitory activity on HBV (HBsAg, HBeAg and HBV DNA) was evaluated. […] Cytotoxicity was assayed with a modified 3-(4,5-dimethylthiazole-2-yl)-2,5-diphenyltetrazolium bromide (MTT) method (Gibco Invitrogen, Carlsbad, CA, USA). The anti-HBV antigen secretion activities were determined by the enzyme linked immunosorbent assay (ELISA; Autobio Diagnostics Co., Ltd, China). A real-time PCR assay was applied to detect the inhibitory activity on HBV DNA replication.

HBeAg secretion = system: HBeAg secretion
Protocol: as §1

HBsAg secretion = system: HBsAg secretion
Protocol: as §1

| SMILES | HBV DNA SI (HBV DNA replication) | HBeAg SI (HBeAg secretion) | HBsAg SI (HBsAg secretion) |
| --- | --- | --- | --- |
| C[C@H](Cn1cnc2c(N)ncnc21)OCP(=O)(O)O [Tf, Tenofovir, reference compound] | >2417.3 | >1.4 | >1.2 |
| CC1(C)CCC[C@](C)([C@H]2CC[C@]3(C)[C@@H]2[C@H](O)C[C@@H]2[C@@]4(C)CC[C@H](OC(=O)c5ccccc5)C(C)(C)[C@@H]4CC[C@]23C)O1 [Compound 8, 3-O-Benzoyl panaxadiol] | 4.0 | – | – |
| CCOCC(=O)O[C@H]1CC[C@]2(C)[C@H]3C[C@@H](O)[C@@H]4[C@@H]([C@@]5(C)CCCC(C)(C)O5)CC[C@@]4(C)[C@]3(C)CC[C@H]2C1(C)C [Compound 13, 3-O-2′-Ethyoxyl-acetyl panaxadiol] | – | – | 2.5 |
| CC1(C)CCCC(C)(C2CCC3(C)C2C(O)CC2C4(C)CCC(OC(=O)C5CCCC5)C(C)(C)C4CCC23C)O1 (centres unmarked) [Compound 2, 3-O-Cyclopentanecarbonyl panaxadiol] | 4.2 | – | 1.7 |
| CC1(C)CCCC(C)(C2CCC3(C)C2C(O)CC2C4(C)CCC(OC(=O)CCC(=O)O)C(C)(C)C4CCC23C)O1 (centres unmarked) [Compound 14, 3-O-Succinyl panaxadiol] | 10.7 | 1.1 | – |
| CC(CC(=O)O)CC(=O)O[C@H]1CC[C@]2(C)[C@H]3C[C@@H](O)[C@@H]4[C@@H]([C@@]5(C)CCCC(C)(C)O5)CC[C@@]4(C)[C@]3(C)CC[C@H]2C1(C)C (some centres unmarked) [Compound 17, 3-O-(3′-Methyl) diglutaryl panaxadiol] | 10.8 | – | – |
| CC1(C)CCCC(C)(C2CCC3(C)C2C(O)CC2C4(C)CCC(OC(=O)CCCC(=O)O)C(C)(C)C4CCC23C)O1 (centres unmarked) [Compound 15, 3-O-Glutaryl panaxadiol] | 3.1 | – | 1.6 |
| CC1(C)CCCC(C)(C2CCC3(C)C2C(O)CC2C4(C)CCC(OC(=O)c5ccccc5O)C(C)(C)C4CCC23C)O1 (centres unmarked) [Compound 9, 3-O-Salicyloyl panaxadiol] | 4.9 | – | 1.0 |
| CC1(C)CCC[C@](C)([C@H]2CC[C@]3(C)[C@@H]2[C@H](O)C[C@@H]2[C@@]4(C)CC[C@H](OC(=O)c5sccc5Cl)C(C)(C)[C@@H]4CC[C@]23C)O1 [Compound 6, 3-O-(3′-Chloro)-thenoyl panaxadiol] | >37.9 | 5.8 | – |
| CC1(C)CCC[C@](C)([C@H]2CC[C@]3(C)[C@@H]2[C@H](O)C[C@@H]2[C@@]4(C)CC[C@H](O)C(C)(C)[C@@H]4CC[C@]23C)O1 [PD, Panaxadiol] | 6.2 | – | – |
| CC1(C)CCCC(C)(C2CCC3(C)C2C(O)CC2C4(C)CCC(OC(=O)c5cccnc5)C(C)(C)C4C(OC(=O)c4cccnc4)CC23C)O1 (centres unmarked) [Compound 24, 3,6-O-Dinicotinoyl-panaxatriol] | – | 1.54 | – |
| COCC(=O)OC1CC2(C)C(CC(O)C3C(C4(C)CCCC(C)(C)O4)CCC32C)C2(C)CCC(OC(=O)COC)C(C)(C)C12 (centres unmarked) [Compound 25, 3,6-O-Di(2′-methoxyl)acetoxyl-panaxatriol] | – | 1.54 | – |
| CC1(C)CCCC(C)(C2CCC3(C)C2C(O)CC2C4(C)CCC(OC(=O)CCC(=O)O)C(C)(C)C4C(OC(=O)CCC(=O)O)CC23C)O1 (centres unmarked) [Compound 21, 3,6-O-Disuccinyl panaxatriol] | >4.1 | – | – |
| CC1(C)CCC[C@](C)([C@H]2CC[C@]3(C)[C@@H]2[C@H](O)C[C@@H]2[C@@]4(C)CC[C@H](OC(=O)c5cc(O)c(O)c(O)c5)C(C)(C)[C@@H]4CC[C@]23C)O1 [Compound 10, 3-O-Galloyl panaxadiol] | 3.6 | – | – |
| CC1(C)CCC[C@](C)([C@H]2CC[C@]3(C)[C@@H]2[C@H](O)C[C@@H]2[C@@]4(C)CC[C@H](O)C(C)(C)[C@@H]4[C@@H](O)C[C@]23C)O1 [PT, Panaxatriol] | 3.6 | – | – |
| CC(C)(CC(=O)O)CC(=O)O[C@H]1CC[C@]2(C)[C@H]3C[C@@H](O)[C@@H]4[C@@H]([C@@]5(C)CCCC(C)(C)O5)CC[C@@]4(C)[C@]3(C)CC[C@H]2C1(C)C [Compound 18, 3-O-(3′,3′-Dimethyl) glutaryl panaxadiol] | 2.5 | – | – |
| CC1(C)CCCC(C)(C2CCC3(C)C2C(O)CC2C4(C)CCC(OC(=O)c5cccs5)C(C)(C)C4CCC23C)O1 (centres unmarked) [Compound 4, 3-O-(2′-Thenoyl) panaxadiol] | > 115.7 | > 105.1 | > 62.0 |
| CC1(C)CCCC(C)(C2CCC3(C)C2C(O)CC2C4(C)CCC(OC(=O)c5cccnc5)C(C)(C)C4CCC23C)O1 (centres unmarked) [Compound 11, 3-O-Nicotinoyl panaxadiol] | 9.8 | – | – |
| CC1(C)CCCC(C)(C2CCC3(C)C2C(O)CC2C4(C)CCC(OC(=O)c5ccco5)C(C)(C)C4CCC23C)O1 (centres unmarked) [Compound 3, 3-O-(2′-Furoyl) panaxadiol] | 23.6 | – | 1.4 |
